Tested on: Plasmodium falciparum
Assay: In vitro antimalarial activity against chloroquine-sensitive Plasmodium falciparum NF54

CO[C@H]1O[C@]2(C)CC[C@H]3CCC[C@@H](CCOP(=O)(Oc4ccccc4)Oc4ccccc4)C31OO2
IC50: 14 nM
